Results of unrelated studies side by side (data: NIAID ChemDB).

Shared fields: target-level tests; agent: HIV-1; protein: Protease

Conditions beyond the fields shown may differ between rows.

structure	endpoint	setting	strain or isolate	method	result
CC(C)(C)NC(=O)c1ccccc1C[C@H](O)[C@H](Cc1ccccc1)NC(=O)c1cccc(C(=O)N2CCc3ccccc3C2)c1	IC50			fluorescence	0.028 µg/mL
CCCCN(CCCC)c1cccc(C2(O)CCN(CCCC(=O)c3ccc(NC4CCCCC4)cc3)CC2)c1	IC50				530 µM
COC(=O)[C@]12CCC(C)(C)C[C@H]1C1=CC[C@@H]3[C@@]4(C)CC[C@@H](NC(=O)CCCCC(=O)OC[C@H]5O[C@@H](n6cc(C)c(=O)[nH]c6=O)C[C@@H]5N=[N+]=[N-])C(C)(C)[C@@H]4CC[C@@]3(C)[C@]1(C)CC2	IC50			HPLC	8 µM
CC(C)(C)OC(=O)N[C@@H](Cc1ccccc1)[C@H](O)CNC[C@@H](O)[C@H](Cc1ccc(OCC(=O)N2CCOCC2)cc1)NC(=O)OC(C)(C)C	IC50			substrate cleavage	0.075 µM
CC[C@H](C)[C@@H]1NC(=O)[C@@H](NC[C@H](O)[C@H](Cc2ccccc2)NC(=O)[C@@H](NC(=O)[C@H](CC(C)C)NC(C)=O)C(C)C)Cc2ccc(cc2)OCCCNC1=O	IC50			fluorescence	0.002 µM
CC(C)(C)NC(=O)[C@@H]1CN(Cc2cc3sccc3s2)CCN1C[C@@H](O)C[C@@H](Cc1ccncc1)C(=O)N[C@H]1c2ccccc2C[C@H]1O	IC50				0.00008 µM
CC(C)(C)NC(=O)[C@@H]1CCCN1C(=O)[C@@H](O)[C@H](Cc1ccccc1)NC(=O)[C@H](CC(N)=O)NC(=O)c1ccc2ccccc2n1	IC50				<0.05 µM
CCNC(=O)[C@@H](NC(=O)Cc1ccccc1)[C@@H]1N[C@@H](C(=O)NCCNC(=O)[C@@H]2N[C@@H]([C@H](NC(=O)Cc3ccccc3)C(=O)NCC)SC2(C)C)C(C)(C)S1	Ki		RF	HPLC	0.0001 µM
CCCCCCCCCCCCCCCC(=O)N[C@@H](CO)C(=O)N[C@@H](Cc1ccc(O)cc1)C(=O)N[C@@H](CCC(=O)O)C(=O)N[C@@H](CC(C)C)C(=O)O	IC50			fluorescence	~0.3 µM
CCOP(=O)(C(Cc1ccccc1)NC(=O)[C@@H](NC(=O)OCc1ccccc1)C(C)C)C(Cc1ccccc1)NC(=O)[C@@H](NC(=O)OCc1ccccc1)C(C)C	IC50				>10 µM
CC(C)(C)NC(=O)[C@@H]1CCCN1C(=O)[C@@H](O)[C@H](Cc1ccccc1)NC(=O)[C@H](CC(N)=O)NC(=O)COc1cccc2ccccc12	IC50			HPLC	0.0032–0.0123 µM
O=C1N(Cc2ccccc2)[C@H](Cc2ccccc2)[C@H](O)[C@@H](O)[C@@H](Cc2ccccc2)N1Cc1ccccc1	Ki				0.0036 µM
CC[C@H](C)[C@H](NC(C)=O)C(=O)N[C@@H](CO)C(=O)N[C@@H](Cc1ccc2ccccc2c1)C(=O)N[C@@H](CCC(=O)O)C(=O)N[C@@H](CC(C)C)C(=O)O	Ki			fluorescence	0.26 µM
CC(C)(C)NC(=O)[C@H]1N(C(=O)[C@@H](O)[C@H](Cc2ccccc2)NC(=O)[C@H](CC(N)=O)NC(=O)COc2cccc(Nc3ccccc3)c2)CSC1(C)C	Ki			HPLC	0.000058 µM
CC(C)c1ccccc1SC1=C(O)CC(CCCC(=O)N2CCNCC2)(c2ccccc2)OC1=O	IC50	pH 4.7		HPLC	0.564 µM
CC(C)(C)NC(=O)[C@@H]1CCCN1C(=O)[C@H](O)[C@H](Cc1ccccc1)NC(=O)[C@H](CC(N)=O)NC(=O)OCc1ccccc1	IC50			HPLC	>0.089 µM
CCCCCCCCCCCCCCCC(=O)N[C@@H](CO)C(=O)N[C@@H](Cc1ccc2ccccc2c1)C(=O)N[C@@H](CCC(=O)O)C(=O)N[C@@H](Cc1ccc2ccccc2c1)C(=O)O	IC50			fluorescence	0.23 µM
CC(C)c1ccccc1SC1=C(O)CC(CCCC(=O)N(C)Cc2ccccc2)(c2ccccc2)OC1=O	IC50	pH 4.7		HPLC	0.676 µM
CC(=O)N[C@@H](Cc1ccc(O)cc1)C(=O)N[C@@H](CCC(=O)O)C(=O)N[C@@H](CC(C)C)C(=O)O	IC50			fluorescence	34 µM
CCCCN(CCCC)c1cccc(C2(O)CCN(CCCC(=O)c3ccc(F)cc3)CC2)c1	IC50				75 µM
CC(C)(C)C(SC1CCCC1)c1c(O)cc(-c2ccccc2)oc1=O	Ki				0.058 µM
Cc1ccc(C(=O)N(C)Cc2cccc3ccccc23)cc1C(=O)N[C@@H](Cc1ccccc1)[C@@H](O)CN1C[C@H]2CCCC[C@H]2C[C@H]1C(=O)NC(C)(C)C	IC50			fluorescence	0.0084 µg/mL
CC(C)c1ccccc1SC1=C(O)CC(CCCC(=O)Nc2ccccc2)(c2ccccc2)OC1=O	IC50	pH 4.7		HPLC	0.429 µM
Cc1ccc(C(=O)N(C)Cc2ccncc2)cc1C(=O)N[C@@H](Cc1ccccc1)[C@@H](O)CN1C[C@H]2CCCC[C@H]2C[C@H]1C(=O)NC(C)(C)C	IC50			fluorescence	0.005 µg/mL
O=C(O)CCCCCCCCCCCCCCC(=O)O	IC50			fluorescence	>1000 µM
CCN(CCN(C)C)c1ccc(C(=O)CCCN2CCC(O)(c3ccc(Cl)cc3)CC2)cc1	IC50				355 µM
CCCC1(CCc2ccc(O)cc2)CC(O)=C(Sc2cc(C)c(OCCO)cc2C(C)(C)C)C(=O)O1	IC50			HPLC / absorbance	0.006 µM
COC(=O)[C@]12CC[C@@H](C)[C@H](C)[C@H]1C1=CC[C@@H]3[C@@]4(C)CC[C@H](O)C(C)(C)[C@@H]4CC[C@@]3(C)[C@]1(C)CC2	IC50			HPLC	14 µM
O=S1C[C@](CO)(Cc2ccccc2)C(O)[C@@](CO)(Cc2ccccc2)C1	Ki				7 µM
Cc1ccc(C(=O)N(C)Cc2ccccn2)cc1C(=O)N[C@@H](CSc1ccccc1)[C@@H](O)CN1C[C@H]2CCCC[C@H]2C[C@H]1C(=O)NC(C)(C)C	IC50			fluorescence	0.0148 µg/mL
C=C(C)[C@@H]1CC[C@]2(C(=O)OC)CC[C@]3(C)[C@H](CC[C@@H]4[C@@]5(C)CC[C@H](O)C(C)(C)[C@@H]5CC[C@]43C)[C@@H]12	IC50			HPLC	>25 µM
Cc1ccccc1-n1nnc(C(c2ccccc2)(c2ccccc2)n2ccnc2)c1C	IC50			substrate cleavage / fluorescence	48.4 µM
CN(C)CCNc1ccc(C(=O)CCCN2CCC(O)(c3ccc(Cl)cc3)CC2)cc1	IC50				290 µM
Cc1ccc(C(=O)N2CCc3ccccc3C2)cc1C(=O)N[C@@H](Cc1ccccc1)[C@@H](O)Cc1ccccc1C(=O)NC(C)(C)C	IC50			fluorescence	0.4 µg/mL
COC(=O)[C@]12CCC(C)(C)CC1C1=CCC3[C@@]4(C)CC[C@H](N)C(C)(C)C4CC[C@@]3(C)[C@]1(C)CC2	IC50			HPLC	>20 µM
O=C(CCCN1CCC(O)(c2ccc(Cl)cc2)CC1)c1ccc(NC2CCCCC2)cc1	IC50				95 µM
Cc1cn([C@H]2C[C@H](N=[N+]=[N-])[C@@H](COC(=O)CCCCC(=O)O[C@H]3CC[C@]4(C)[C@H]5CC=C6[C@@H]7CC(C)(C)CC[C@]7(C(=O)O)CC[C@@]6(C)[C@]5(C)CC[C@H]4C3(C)C)O2)c(=O)[nH]c1=O	IC50			HPLC	3.2 µM
COC(=O)c1cccc(CN2C(=O)C(=O)N(Cc3cccc(C(=O)OC)c3)[C@H](Cc3ccccc3)C(O)[C@H]2Cc2ccccc2)c1	Ki				0.04 µM
Cc1ccc(S(=O)(=O)N[C@@H](Cc2c[nH]c3ccccc23)C(=S)NCCCC[C@@H](C(=O)O)N(CC(C)C)S(=O)(=O)c2ccc(C)cc2)cc1	Ki			FRET	0.0048 µM
CC1(C)S[C@@H]2[C@H](NC(=O)Cc3ccccc3)C(=O)N2[C@H]1C(=O)NCCNC(=O)[C@@H]1N2C(=O)[C@@H](NC(=O)Cc3ccccc3)[C@H]2SC1(C)C	IC50		RF	HPLC	0.14 µM
Cc1nc(COc2ccc(C[C@H](NC(=O)O[C@H]3CO[C@H]4OCC[C@H]43)[C@H](O)CN(CC(C)C)S(=O)(=O)c3ccc4c(c3)OCO4)cc2)cs1	Ki		HXB2	absorbance	0.000004 µM
CC(C)c1ccccc1SC1=C(O)CC(CCCCC(=O)N2CCSCC2)(c2ccccc2)OC1=O	IC50	pH 4.7		HPLC	0.583 µM
O=C1N(Cc2cccc(O)c2)[C@H](CCc2ccccc2)[C@@H](O)[C@@H](Cc2ccccc2)N1Cc1cccc(O)c1	Ki				0.00028 µM
CC(C)c1ccccc1SC1=C(O)CC(CCCC(=O)N(C)c2ccccc2)(c2ccccc2)OC1=O	IC50	pH 4.7		HPLC	0.624 µM
O=C(O)CCCCCCCCCCCCCCCCCCCCC(=O)O	IC50			fluorescence	12 µM
O=C(CCCN1CCC(O)(c2cccc(NC3CCCCC3)c2)CC1)c1ccc(F)cc1	IC50				115 µM
CC[C@H](C)[C@H](NC(=O)[C@@H]1CCCN1C(=O)[C@H](O)[C@H](Cc1ccccc1)NC(=O)[C@H](CC(N)=O)NC(=O)[C@H](Cc1ccccc1)NC(=O)[C@@H](N)CO)C(=O)N[C@H](C(N)=O)C(C)C	IC50				<5 µM
O=C(O)/C=C/CCCCCCCCC(=O)O	IC50			fluorescence	>1000 µM
Cc1ccc(C(=O)N(C)Cc2ccccc2)cc1C(=O)N[C@@H](Cc1ccccc1)[C@@H](O)CN1CC2CCCCC2CC1C(=O)NC(C)(C)C	IC50			fluorescence	0.0191 µg/mL
O=C(O)CCCCCCC(=O)O	IC50			fluorescence	>1000 µM
C[C@H]1[C@H](C)CC[C@]2(C)CC[C@]3(C)C(=CC[C@@H]4[C@@]5(C)CC[C@H](O)C(C)(C)[C@@H]5CC[C@]43C)[C@H]12	IC50			HPLC	80 µM
CC[C@H](C)[C@H](NC(=O)[C@@H]1CCCN1C[C@H](O)[C@H](Cc1ccccc1)NC(=O)[C@H](CC(N)=O)NC(=O)[C@H](CC(C)C)NC(C)=O)C(=O)N[C@H](C(=O)OC)C(C)C	IC50			fluorescence	0.009 µM
CC(=O)N[C@H](CSc1ccc2ccccc2c1)C(=O)N[C@@H](Cc1ccccc1)[C@H](O)C(=O)N1CSC(C)(C)[C@H]1C(=O)NCc1ccccc1C	IC50				<0.001 µM
O=C(NCc1ccc2c(c1)[C@H](O)[C@@H](O)c1cc(CNC(=O)OCc3ccccc3)ccc1C2=O)OCc1ccccc1	Ki				0.005 µM
CCCCNc1cccc(C2(O)CCN(CCCC(=O)c3ccc(F)cc3)CC2)c1	IC50				170 µM
CC(C)NC(=O)[C@@H]1CCCN1C(=O)[C@@H](O)[C@H](Cc1ccccc1)NC(=O)[C@H](CC(N)=O)NC(=O)OCc1ccccc1	IC50			HPLC	0.52 µM
CC[C@H](C)[C@@H]1NC(=O)[C@@H](NC[C@@H](O)[C@H](Cc2ccccc2)NC(=O)[C@@H](NC(=O)[C@H](CC(C)C)NC(C)=O)C(C)C)Cc2ccc(cc2)OCCCNC1=O	IC50			fluorescence	0.002 µM
C[C@H]1[C@H](C)CC[C@]2(CO)CC[C@]3(C)C(=CC[C@@H]4[C@@]5(C)CC[C@H](O)C(C)(C)[C@@H]5CC[C@]43C)[C@H]12	IC50			HPLC	5.5 µM
C=C(C)[C@@H]1CC[C@]2(C(=O)O)CC[C@]3(C)[C@H](CC[C@@H]4[C@@]5(C)CC[C@H](OC(=O)CCCC(=O)O)C(C)(C)[C@@H]5CC[C@]43C)[C@@H]12	IC50			HPLC	4 µM
CC(=O)N[C@@H](Cc1ccccc1)C(=O)N[C@@H](CO)C(=O)N[C@@H](Cc1ccc(O)cc1)C(=O)N[C@@H](CCC(=O)O)C(=O)N[C@@H](CC(C)C)C(=O)O	IC50			fluorescence	0.9 µM
Cc1cc(SC2=C(O)CC(CCc3ccc(O)cc3)(c3ccccc3)OC2=O)c(C(C)(C)C)cc1CO	IC50			HPLC / absorbance	0.0216 µM
Cc1cn([C@H]2C[C@H](N=[N+]=[N-])[C@@H](COC(=O)CCCCC(=O)N[C@@H]3CC[C@]4(C)[C@H]5CC=C6[C@@H]7CC(C)(C)CC[C@]7(C(=O)O)CC[C@@]6(C)[C@]5(C)CC[C@H]4C3(C)C)O2)c(=O)[nH]c1=O	IC50			HPLC	1.9 µM
O=C(O)CCCCCCCCCCCCC(=O)O	IC50			fluorescence	>1000 µM
O=c1n(Cc2ccccc2)c2c(Cc3ccccc3)oc(Cc3ccccc3)c2n1Cc1ccccc1	Ki				3.7 µM
CCCCCCCCCCCCCCCC(=O)N[C@@H](Cc1ccc(O)cc1)C(=O)N[C@@H](CCC(=O)O)C(=O)N[C@@H](Cc1ccc2ccccc2c1)C(=O)O	IC50			fluorescence	0.5 µM

The last 6 rows once more:

CC(=O)N[C@@H](Cc1ccccc1)C(=O)N[C@@H](CO)C(=O)N[C@@H](Cc1ccc(O)cc1)C(=O)N[C@@H](CCC(=O)O)C(=O)N[C@@H](CC(C)C)C(=O)O ; endpoint: IC50 ; method: fluorescence ; result: 0.9 µM
Cc1cc(SC2=C(O)CC(CCc3ccc(O)cc3)(c3ccccc3)OC2=O)c(C(C)(C)C)cc1CO ; endpoint: IC50 ; method: HPLC / absorbance ; result: 0.0216 µM
Cc1cn([C@H]2C[C@H](N=[N+]=[N-])[C@@H](COC(=O)CCCCC(=O)N[C@@H]3CC[C@]4(C)[C@H]5CC=C6[C@@H]7CC(C)(C)CC[C@]7(C(=O)O)CC[C@@]6(C)[C@]5(C)CC[C@H]4C3(C)C)O2)c(=O)[nH]c1=O ; endpoint: IC50 ; method: HPLC ; result: 1.9 µM
O=C(O)CCCCCCCCCCCCC(=O)O ; endpoint: IC50 ; method: fluorescence ; result: >1000 µM
O=c1n(Cc2ccccc2)c2c(Cc3ccccc3)oc(Cc3ccccc3)c2n1Cc1ccccc1 ; endpoint: Ki ; result: 3.7 µM
CCCCCCCCCCCCCCCC(=O)N[C@@H](Cc1ccc(O)cc1)C(=O)N[C@@H](CCC(=O)O)C(=O)N[C@@H](Cc1ccc2ccccc2c1)C(=O)O ; endpoint: IC50 ; method: fluorescence ; result: 0.5 µM

An empty or dashed field is not shown. a–b is a range or a potency band. ICn: concentration for n% inhibition.